Laboratory results taken from PMC12613110, “Anti-Trypanosoma cruzi Effects of Sesquiterpenoids from Branches of Drimys brasiliensis (Winteraceae)” (ACS Omega, 2025).

Assays:
[1] = tested on: intracellular amastigote forms of T. cruzi; test: Activity against intracellular amastigote forms of T. cruzi in infected peritoneal macrophages (48 h); type: cell-based, Trypanosoma cruzi; conditions: Selectivity Index, NCTC CC50 vs amastigote EC50
Procedure: (§1) The trypomastigote forms of T. cruzi (Y strain) were maintained in culture using Rhesus monkey kidney cells (LLC-MK2, ATCC CCL-7). These cells were cultured in RPMI-1640 medium supplemented with 2% fetal bovine serum (FBS) and incubated at 37 °C in a humidified atmosphere containing 5% CO2. Mouse fibroblast cells (NCTC clone L929, ATCC) and LLC-MK2 cells were similarly maintained in RPMI-1640 medium supplemented with 10% FBS under identical incubation conditions (37 °C, 5% CO2). Peritoneal macrophages were isolated from BALB/c mice by peritoneal lavage using RPMI-1640 medium supplemented with 10% FBS, followed by incubation at 37 °C in a 5% CO2 humidified atmosphere. In addition, the human monocytic cell line THP-1 (ATCC TIB-202) was cultured in RPMI-1640 medium supplemented with 20% FBS and […] glutamine, and maintained at 37 °C in a humidified 5% CO2 environment.
The antiparasitic activity of compounds 1–6 against the intracellular amastigote forms of T. cruzi was assessed using an in vitro infection model with peritoneal macrophages. Macrophages were seeded in 16-well plates at a density of 1 × 10^5 cells per well and incubated at 37 °C in a humidified atmosphere containing 5% CO2 for 24 h to promote adherence. Cells were then infected with trypomastigotes for 2 h under the same conditions to allow parasite internalization. Following infection, noninternalized parasites were removed by washing with RPMI-1640 medium. The infected macrophages were subsequently treated with serial dilutions of compounds 1–6 (150.0–1.6 μM) and incubated for an additional 48 h at 37 °C in 5% CO2 to evaluate their antitrypanosomal efficacy. ,
(§2) The CC50 and EC50 values were obtained from sigmoid dose–response curves using Graph-Pad Prims 6.0 software. All samples were tested in triplicate.

[2] = tested on: T. cruzi trypomastigotes (Y strain); test: Anti-T. cruzi activity against trypomastigote forms (resazurin reduction assay, 24 h); type: cell-based, Trypanosoma cruzi; conditions: Selectivity Index, NCTC CC50 vs trypomastigote EC50
Procedure: as §1
Compounds 1–6 were initially dissolved in DMSO and subsequently diluted in RPMI-1640 medium to the desired concentrations before being dispensed into 96-well microplates. T. cruzi trypomastigotes were then added at a density of 1 × 10^6 parasites per well. The plates were incubated for 24 h at 37 °C in a humidified atmosphere containing 5% CO2. Following incubation, the 50% effective concentration (EC50) was determined using the resazurin reduction assay. Absorbance readings were acquired at 570 nm using a microplate spectrophotometer (FilterMax F5). Untreated parasites served as the negative control, while benznidazole, a standard reference drug, was used as the positive control.
as §2

Compound	SI amastigote [1]	SI trypomastigote [2]
CC(C)=CCC[C@@H](C)C1=CC(=O)[C@@](C)(O)CC1 (relative stereo) [Compound 1, rel-(3S,7R)-3-hydroxy-bisabola-1(6),10-dien-2-one]	>29.7	>5.2
CC(C)=CCC[C@@H](C)C1=C[C@H](O)[C@@](C)(O)CC1 (relative stereo) [Compound 2, rel-(2S,3S,7R)-bisabola-1(6),10-diene-2,3-diol]	>8.3	>2.3
CC(C)=CCC[C@@H](C)[C@]12C=C[C@](C)(CC1)OO2 (relative stereo) [Compound 3, rel-(3S,6R,7R)-3,6-epidioxy-1,10-bisaboladiene]	–	>3.0
CC(C)=CCC[C@@H](C)c1ccc(C)cc1 [Compound 4, α-curcumene]	41.1 and >41.1	–
CC1(C)CCC[C@]2(C)[C@@H](C=O)C(C=O)=CC[C@@H]12 [Compound 5, polygodial]	57.3 and >57.3	>52.0
O=C(Cn1ccnc1[N+](=O)[O-])NCc1ccccc1 [benznidazole, reference compound]	>36.4	–

Several values for one entry are separate records, joined by “and”; a condition that tells them apart may be missing. Equal values may be shown once.
